Results of unrelated studies side by side (data: NIAID ChemDB).

Common to all: growth or infection tests; species: HIV-1; endpoint: inhibition

a–b is a range or a potency band. Lines come from different laboratories, so protocols vary. Inhibition is in % at the dose shown (toxicity tests: loss of growth or viability). An empty or dashed field is not shown.

structure,read by,changes,cell line,strain or isolate,dose,result
O=c1oc2cc(O)cc(O)c2c(O)c1-c1coc2c1c(=O)oc1cc(O)cc(O)c12,MTT,-,MT-4,IIIB,0.1 µM,55%
O=S(=O)(O)c1ccc(-c2c3nc(c(-c4ccc(S(=O)(=O)O)cc4)c4ccc([nH]4)c(-c4ccc(S(=O)(=O)O)cc4)c4nc(c(-c5ccc(S(=O)(=O)O)cc5)c5ccc2[nH]5)C=C4)C=C3)cc1,β-galactosidase,-,MAGI,IIIB,50 µg/mL,93%
CCCCCCCCCCCCCCc1sc(NC(=O)NCCc2ccccc2)nc1-c1ccc(Cl)cc1,cytopathic effect / XTT,-,MT-4,-,100 µg/mL,33%
CC(C)[C@H](NC(=O)[C@H](CO)NC(=O)[C@H](CS)NC(=O)CCC(=O)NCCCOCCOCCCN)C(=O)N[C@H](C(=O)N[C@@H](CS)C(=O)NCC(=O)O)[C@@H](C)O,p24,-,PBMC(PHA STIM.) + PBMC,BaL,0.66 µM,23%
N#Cc1cc(Cl)cc(Oc2c(Cl)ccc3c2cnn3Cc2[nH]nc3ncccc23)c1,-,-,MT-4,-,0.011 µM,>95%
S=C(NCCc1ccccc1)N1CCOCC1,cytopathic effect / XTT,-,MT-4,-,1 µg/mL,13%
O=C(C(=O)N1CCN(C(=O)c2ncc[nH]2)CC1)c1c[nH]c2cccc(F)c12,luciferase,-,HeLa + HELA CD4+/CCR5,-,10 µM,71%
Cc1ccc(C)c2c1NC(=O)C2CC(=O)N[C@@H](Cc1ccccc1)C(=O)N(C)c1cccc(Cl)c1,fluorescence,-,-,NL4-3,20 µM,99%
C=C(C)[C@@H]1CC[C@]2(C(=O)NCCCCCCCC(=O)N[C@@H](CC(C)C)[C@@H](O)CC(=O)O)CC[C@]3(C)[C@H](CC[C@@H]4[C@@]5(C)CC[C@H](O)C(C)(C)[C@@H]5CC[C@]43C)[C@@H]12,syncytia,GP41-K77R,HeLa P4 + HeLa,LAI,10 µM,>99%
Cc1ccc(N(C)C(=O)[C@H](Cc2ccccc2)NC(=O)Cc2cccc3ccccc23)cc1,fluorescence,-,-,NL4-3,2 µM,96%
N#Cc1cc(Cl)cc(Oc2c(Cl)ccc3c2cnn3Cc2[nH]nc3nc(N)ccc23)c1,-,Y181C,MT-4,-,0.068 µM,>95%
c1ccc2c(-c3ccc(-c4ccc(-c5ccc(-c6cccc7ccccc67)s5)c5ccccc45)s3)cccc2c1,p24 / ELISA / antigen,-,C8166,IIIB,2 µM,47.06%
Nc1ccn([C@H]2CC[C@@H](CO)O2)c(=O)n1,antigen,-,MT-4,IIIB,2 µM,97%
O=C(C(=O)N1CCN(C(=O)c2ccccc2)CC1C(F)(F)F)c1c[nH]c2cccc(F)c12,luciferase,-,HeLa + HELA CD4+/CCR5,-,10 µM,91%
N=C1Sc2ccccc2C2=NCCCN12,MTS,-,PBMC,93BR021,4.26 µM,90%
O=C(C(=O)N1CCN(C(=O)c2cccc(S)c2)CC1)c1c[nH]c2cccc(F)c12,luciferase,-,HeLa + HELA CD4+/CCR5,-,10 µM,>98%
CO[C@]1(C)OC[C@H]([C@@H]2CC(=O)C[C@H](c3ccccc3)C23C(=O)OC(C)(C)OC3=O)O[C@@]1(C)OC,MTT,-,SupT1,NL4-3,10 µM,>50%
S=C(NCCc1ccccc1)N1CCCCC1,cytopathic effect / XTT,-,MT-4,-,10 µg/mL,0%
CN(C(=O)[C@H](Cc1ccccc1)NC(=O)CN1C(=O)NC2(CCCCC2)C1=O)c1cccc(Br)c1,fluorescence,-,-,NL4-3,20 µM,36%
Cc1ccc(-c2ccc3c(c2)C=C(C(=O)Nc2ccc(C[N+](C)(C)C4CCOCC4)cc2)CCC3)cc1,p24,-,PBMC,CM1 CLADE C,1 µM,95.5%
COC(=O)[C@H]1[C@@H]2C[C@@H](O[C@@H]3O[C@H](C)[C@@H](O)[C@H](N)[C@@H]3O)/C=C/C=C/C=C/C=C/C=C/C=C/C=C/[C@H](C)[C@@H](O)[C@H](C)[C@H](C)OC(=O)C[C@H](O)C[C@H](O)[C@@H](O)CC[C@H](O)C[C@H](O)C[C@](O)(C[C@@H]1O)O2,p24 / antigen,-,H9,IIIB,10 µg/mL,43%
Cc1ccc(C)c2c1NC(=O)C2CC(=O)N[C@@H](Cc1ccccc1)C(=O)N(C)c1cccc(F)c1,fluorescence,-,-,NL4-3,20 µM,70%
O=S(=O)(O)c1ccc(-c2c3nc(c(-c4ccc(S(=O)(=O)O)cc4)c4ccc([nH]4)c(-c4ccc(S(=O)(=O)O)cc4)c4nc(c(-c5ccccc5)c5ccc2[nH]5)C=C4)C=C3)cc1,β-galactosidase,-,MAGI,IIIB,0.5 µg/mL,50%
Cc1ccc(C)c2c1NC(=O)C2CC(=O)N[C@@H](Cc1ccccc1)C(=O)N(C)c1ccc(Cl)cc1,fluorescence,-,-,NL4-3,2 µM,10%
O=C1[C@@H](Cc2ccccc2)NC(=S)N1c1ccccc1,cytopathic effect / XTT,-,MT-4,-,10 µg/mL,12–16%
CC(C)[C@H](NC(=O)[C@H](CO)NC(=O)[C@@H](N)CS)C(=O)N[C@H](C(=O)N[C@@H](CS)C(=O)NCC(=O)O)[C@@H](C)O,p24,-,PBMC(PHA STIM.) + PBMC,IIIB,0.66 µM,79%
O=C(C(=O)N1CCN(C(=O)c2ccc(C(F)(F)F)o2)CC1)c1c[nH]c2c(F)ccc(F)c12,luciferase,-,HeLa + HELA CD4+/CCR5,-,10 µM,>98%
Cc1ccc(N(C)C(=O)[C@H](Cc2ccccc2)NC(=O)CN2C(=O)NC3(CCCCC3)C2=O)cc1,fluorescence,-,-,NL4-3,20 µM,92%
C[C@H]1CN(C(=O)c2ccccc2)CCN1C(=O)C(=O)c1c[nH]c2c(F)cccc12,luciferase,-,HeLa + HELA CD4+/CCR5,-,10 µM,96%
O=C(NCCc1ccccc1)Nc1nncs1,cytopathic effect / XTT,-,MT-4,-,10 µg/mL,100%
N#Cc1cc(Cl)cc(Oc2c(Cl)ccc3c2ncn3Cc2[nH]nc3ncccc23)c1,-,K103N,MT-4,-,0.066 µM,>95%
O=C(C(=O)N1CCN(C(=O)c2ccccc2)CC1)c1c[nH]c2cc(F)ccc12,RT activity,-,MT-2,BRU,10 µM,>98%
Cc1nc(NC(=O)NCCc2ccccc2)sc1C,cytopathic effect / XTT,-,MT-4,-,100 µg/mL,99–100%